Laboratory results: PubChem BioAssay AID504761 (Drosophila RNAi Screening Center, 2011)
In all, the deposit lists about 22,000 reagents; below is a random part of those that have a named target and a result. In the full data, 116 (0.52%) were called active. 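Calls depend on retest data that are not deposited; infection was ranked per plate without normalising between plates; the unit of the infection score is not given.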 Raw values vary from plate to plate and are shown uncorrected. Unmarked entries are inactive. Further read-outs or replicates are left out here. The record does not give: the amount of reagent, the time to read-out.

Assay: 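Fly genes whose silencing reduces dengue virus type 2 infection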 (primary screen)
Cell system: D.Mel-2 cells from Drosophila
Reagents: long dsRNA against Drosophila genes
Conditions: infection with dengue virus type 2; dose and infection time not stated
Read-out: 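Cells stained for dengue envelope protein and imaged; percent of infected cells per well on duplicate plates, ranked by infection, with stained nuclei counted for cell number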
Reading the numbers: infection score: higher = more virus-infected cells; cell count: higher = more cells in the well
Active means: 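Very low infection ranking in both replicate wells (chance probability at most 0.065), then a retest showing infection dropped 1.5-fold or more at p below 0.05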
Meaning of the calls: active = confirmed: knock-down lowers infection; inactive = not picked or not confirmed

gene	dsRNA	infection score, replicate 1	infection score, replicate 2	cell count, replicate 1
CG31676	DRSC02387	6.45	2.43	5919
Datp	DRSC01102	1.5	1.29	5918
CG12384	DRSC06145	5.21	3.74	5945
CG12384	DRSC28713	10.8	20.4	5566
CG16903	DRSC18561	7.57	6.76	2774
Orp8	DRSC15110	18.3	18.4	6787
Orp8	DRSC15712	4.52	1.81	6996
Orp8	DRSC28849	2.37		1474
Lnk	DRSC16729	2.32	1.85	6645
CG42269	DRSC10670	0.77	2.12	6123
CG42269	DRSC10672	5.55	4.2	6159
CG42269	DRSC24477	1.61	14.4	6256
CG42269	DRSC26685	5.74	3.14	6426
Parg	DRSC18696	7.06	13.5	6301
ND-ASHI	DRSC18291	2.34	2.38	6419
ND-ASHI	DRSC27165	3.99	28.2	6464
CG3505	DRSC15489	12.4	13.4	6033
hob	DRSC08426	8.9	6.43	6598
hob	DRSC24675	4.38	3.72	6191
okr	DRSC00834	2.52	3.16	6027
okr	DRSC24838	6.59	0.4	5602
twin	DRSC15259	5.98	2.58	6123
twin	DRSC15831	5.65	2.69	6359
twin	DRSC21363	1.71	2.06	5739
twin	DRSC29620	13.4	19.5	1601
PK2-R1	DRSC16447	6.05	7.9	6788
PK2-R1	DRSC24363	30.3	13.6	5688
CG13339	DRSC06373	3.5	5.72	6349
CG8087	DRSC16375	12.4	4.74	5996
CG8087	DRSC26924	18.5	19.8	5501
CG14820	DRSC10191	4.52	3.65	5667

7 of these entries, reformatted.
{"gene": "twin", "dsRNA": "DRSC15259", "infection score, replicate 1": 5.98, "infection score, replicate 2": 2.58, "cell count, replicate 1": 6123}
{"gene": "twin", "dsRNA": "DRSC15831", "infection score, replicate 1": 5.65, "infection score, replicate 2": 2.69, "cell count, replicate 1": 6359}
{"gene": "twin", "dsRNA": "DRSC21363", "infection score, replicate 1": 1.71, "infection score, replicate 2": 2.06, "cell count, replicate 1": 5739}
{"gene": "twin", "dsRNA": "DRSC29620", "infection score, replicate 1": 13.4, "infection score, replicate 2": 19.5, "cell count, replicate 1": 1601}
{"gene": "PK2-R1", "dsRNA": "DRSC16447", "infection score, replicate 1": 6.05, "infection score, replicate 2": 7.9, "cell count, replicate 1": 6788}
{"gene": "PK2-R1", "dsRNA": "DRSC24363", "infection score, replicate 1": 30.3, "infection score, replicate 2": 13.6, "cell count, replicate 1": 5688}
{"gene": "CG13339", "dsRNA": "DRSC06373", "infection score, replicate 1": 3.5, "infection score, replicate 2": 5.72, "cell count, replicate 1": 6349}

Additional results:
gene	dsRNA	infection score, replicate 1	infection score, replicate 2	cell count, replicate 1
CR30068 (retired record)	DRSC05477	2.25	4.4	6174
CR30068 (retired record)	DRSC27393	9.57	2.21	6413
Tsp42Ef	DRSC06191	4.81	7.21	6137
CG34396	DRSC04245	23.5	33.1	6593
CG34396	DRSC04246	25.8	12.8	6414
CG34396	DRSC29674		7.13	335
Ten-a	DRSC18924	1.74	4.28	6027
Ten-a	DRSC19700	6.65	8.73	6471
Ten-a	DRSC19793	17.6	27.2	4941
Ten-a	DRSC19864	24.1	21.6	2876
Ten-a	DRSC19865	16.9	13.3	6134
Ten-a	DRSC20290	7.18	11.7	6981
Ten-a	DRSC21461	0.84	1.55	6412
Ten-a	DRSC23016	2.65	6.21	5933
Ten-a	DRSC29598		0.27	298
CG10338	DRSC02039	1.94	2.25	5668
CG15362	DRSC00392	10.7	2.62	6897
Atg4b	DRSC15988	18.2	9.22	4879
Atg4b	DRSC25480	2.68	10.4	7065
ast	DRSC00803	2.61	3.98	6430
ast	DRSC27973	13.1	5.99	5981
CG9896	DRSC03962	3.03	0.67	5913
CG9896	DRSC04594	1.74 (active)	2.68	6679
CD98hc	DRSC15453	2.57	2.84	6114
Or43b	DRSC07486	14.6	13.8	5111
Or43b	DRSC29565		17.5	407
CCHa1	DRSC24978	3.16	3.61	6264
